Assay results reported in patent US10149812B2.

Protein sequences, listed by entry. Tags and fused reporters are not part of them.
UniProt P15390, whole entry: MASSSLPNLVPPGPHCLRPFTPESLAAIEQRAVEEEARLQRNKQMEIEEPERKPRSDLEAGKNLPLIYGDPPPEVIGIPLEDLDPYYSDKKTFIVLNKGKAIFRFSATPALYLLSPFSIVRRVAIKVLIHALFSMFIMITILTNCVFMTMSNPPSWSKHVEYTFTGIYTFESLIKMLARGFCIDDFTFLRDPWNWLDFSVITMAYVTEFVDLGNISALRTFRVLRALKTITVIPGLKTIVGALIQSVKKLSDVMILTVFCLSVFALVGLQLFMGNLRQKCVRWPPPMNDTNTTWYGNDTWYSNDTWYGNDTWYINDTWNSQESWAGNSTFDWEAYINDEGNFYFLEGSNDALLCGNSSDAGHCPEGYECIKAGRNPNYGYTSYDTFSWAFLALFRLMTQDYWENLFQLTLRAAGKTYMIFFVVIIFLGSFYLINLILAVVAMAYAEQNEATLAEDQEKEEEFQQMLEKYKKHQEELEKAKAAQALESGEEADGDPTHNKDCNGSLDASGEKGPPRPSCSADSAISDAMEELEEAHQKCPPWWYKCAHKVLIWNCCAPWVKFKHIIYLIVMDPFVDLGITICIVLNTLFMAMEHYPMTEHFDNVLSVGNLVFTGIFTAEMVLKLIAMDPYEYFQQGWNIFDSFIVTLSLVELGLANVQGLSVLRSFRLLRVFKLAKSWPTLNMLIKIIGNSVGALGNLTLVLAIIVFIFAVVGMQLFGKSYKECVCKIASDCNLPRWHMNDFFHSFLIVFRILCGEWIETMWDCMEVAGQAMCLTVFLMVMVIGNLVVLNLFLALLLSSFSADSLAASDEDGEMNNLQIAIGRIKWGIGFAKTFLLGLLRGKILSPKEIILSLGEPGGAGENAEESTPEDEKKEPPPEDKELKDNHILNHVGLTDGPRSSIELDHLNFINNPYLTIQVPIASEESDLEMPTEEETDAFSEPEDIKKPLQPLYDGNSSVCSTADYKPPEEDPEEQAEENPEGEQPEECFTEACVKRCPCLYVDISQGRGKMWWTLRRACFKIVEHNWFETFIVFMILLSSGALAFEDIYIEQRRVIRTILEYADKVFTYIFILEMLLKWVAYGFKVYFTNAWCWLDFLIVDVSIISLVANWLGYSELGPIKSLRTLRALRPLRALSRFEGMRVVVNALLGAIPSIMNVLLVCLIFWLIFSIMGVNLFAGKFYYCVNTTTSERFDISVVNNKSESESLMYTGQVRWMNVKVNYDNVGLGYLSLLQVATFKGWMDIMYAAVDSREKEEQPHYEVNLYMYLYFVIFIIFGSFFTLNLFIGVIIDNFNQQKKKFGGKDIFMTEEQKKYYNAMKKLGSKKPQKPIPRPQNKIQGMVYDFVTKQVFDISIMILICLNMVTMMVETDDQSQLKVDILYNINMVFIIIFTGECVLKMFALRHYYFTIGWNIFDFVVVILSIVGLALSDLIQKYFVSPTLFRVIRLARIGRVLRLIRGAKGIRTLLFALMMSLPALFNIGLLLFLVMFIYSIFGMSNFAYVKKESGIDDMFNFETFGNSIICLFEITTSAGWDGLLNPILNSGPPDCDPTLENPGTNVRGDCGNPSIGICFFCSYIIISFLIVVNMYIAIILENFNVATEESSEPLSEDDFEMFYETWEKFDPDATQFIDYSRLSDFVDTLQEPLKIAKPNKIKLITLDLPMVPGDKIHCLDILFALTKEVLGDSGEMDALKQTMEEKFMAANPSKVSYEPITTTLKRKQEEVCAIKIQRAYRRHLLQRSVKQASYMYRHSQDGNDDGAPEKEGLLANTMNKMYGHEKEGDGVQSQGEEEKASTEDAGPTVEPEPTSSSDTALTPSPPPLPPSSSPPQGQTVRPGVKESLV

Columns and labels:
crow's foot wrinkles = assay: In vivo clinical evaluation by one expert of main wrinkle depth (modified Bazin's scale); details: T+14 days
[1] = tested on: crow's feet and forehead wrinkles; assay: Quantification of the anti-wrinkles effect on humans, in vivo fringe projection, double-blind active versus placebo; details: composition 0.6 mg/kg, topical
[2] = biological target: rat skeletal muscle Na channel a subunit (μ1, Nav1.4) (Rattus norvegicus, UniProt P15390); assay: Whole-cell patch-clamp sodium current recordings in HEK 293 cells stably expressing Nav1.4

pGlu-Gly-Cys-Cys-Asn-Gly-Pro-Lys-Gly-Cys-Ser-Ser-Lys-Trp-Cys-Arg-Asp-His-Ala-Arg-Cys-Cys-amide
CFW-Gr C14 (crow's foot wrinkle grade, scale 0 to 8) (crow's foot wrinkles; Mean, CnIIIC 2.5 μM 2 times/day, T0 mean 4.291): 4.055
CFW-Gr CdT (evolution of grade score Tn-T0) (crow's foot wrinkles; Mean, CnIIIC 2.5 μM 2 times/day, grade out of 8): −0.236
CFW-Gr CdT (evolution of grade score Tn-T0) (crow's foot wrinkles; Median): −0.200
CFW-Gr C14 (crow's foot wrinkle grade, scale 0 to 8) (crow's foot wrinkles; Median, T0 median 4.400): 4.400
subjects showing an improvement in the crow's foot wrinkles grade (crow's foot wrinkles; 6 subjects out of 11): 55 % of the panel
reduction against placebo for SA parameters [1]: more than 8%
remaining sodium flux through expressed Nav1.4 channels ([2]; 1 microM): less than 4%
Onsets (Block of NaV1.4 at 1 microM) ([2]; HEK 293 cells expressing Nav1.4, mean): 266
